Biological target: Human immunodeficiency virus type 1 reverse transcriptase (Human immunodeficiency virus 1, UniProt Q72547)
Assay: Inhibition of wild type HIV-1 reverse transcriptase assessed as reduction of biotin-dUTP incorporation into […] using ABTS as substrate incubated for 1 hrs by ELISA analysis

Compound: Cc1cc(C#N)cc(C)c1Oc1nc(Nc2ccc(C#N)cc2)nc(N)c1Br [ETRAVIRINE]
- IC50: 8 nM

From ChEMBL document CHEMBL5331067, “Disubstituted pyrimidine-5-carboxamide derivatives as novel HIV-1 NNRTIs: Crystallographic overlay-based molecular design, synthesis, and biological evaluation” (Eur J Med Chem, 2023)
